Laboratory results published in US20040116523A1, “Use of c4-c10 acids for preventing gram-negative bacterial infections” (priority 2000, published 2004).

Test system: Salmonella
Test: Fatty acid substrate for Salmonella

| Structure (SMILES) | Fatty acid substrate for Salmonella |
| --- | --- |
| CCCCCCC(N)C(=O)O (stereo not drawn) [2-Aminocaprylic acid] | No |
| CCCCCCC(O)C(=O)O (stereo not drawn) [2-Hydroxycaprylic acid] | No |
| NCCCCCCCC(=O)O [8-Aminocaprylic acid] | No |
| O=C(O)CCCCCCCO [8-Hydroxycaprylic acid] | No |
| CC(=O)O [Acetic acid] | Yes |
| CCCC(=O)O [Butyric acid] | No |
| CCCCCC(=O)O [Caproic acid] | No |
| CCCCCCC(=O)O [Oenanthic acid] | No |
| CCCCCCCCC(=O)O [Pelargonic acid] | No |
| CCC(=O)O [Propionic acid] | Yes |
| CCCCC(=O)O [Valeric acid] | No |
| CCCCCCCC(=O)[O-].[Na+] [sodium caprylate] | No |
